Data taken from patent publication US5681800A, “Biodegradable branched synthetic ester base stocks and lubricants formed therefrom” (priority 1995, dated 1997).

Test system: sewage micro-organisms
Experiment: Biodegradation, Modified Sturm test (OECD 301B)
Settings: for % Biodegradation (28 Days) / 10-Day Window: Table 8

Compound	% Biodegradation (28 Days) [%]	% Biodegradation (Mod. Sturm) (Table 2)	10-Day Window
triester of trimethylolpropane and isostearic acid [TMP/iC18]	63.32	~ 65%	no
CCCCCCCCCOC(=O)CCCCC(=O)OCCCCCCCCC [L9 Adipate, diester of adipic acid and nC9 alcohol]	89.63	–	yes
